Compound potency records, mixed from different reports. Data source: NIAID ChemDB in PubChem.

All rows: tests in culture

"inactive" is the filed call at that dose; no cut-off is given. Inhibition is in % at the dose shown (toxicity tests: loss of growth or viability). Zones are inhibition diameters on agar. An empty or dashed field is not shown. Conditions beyond the fields shown may differ between rows. A number after MIC or MFC names an inhibition level or a share of isolates. Two numbers with a dash give a range or band. ECn is the concentration giving n% inhibition of infection, replication or growth.

compound	cells	strain	tested at	method	read-out	species	value
O=C1C=CN([C@@H]2O[C@H](CO)[C@@H](O)[C@H]2O)C(=O)C1	VERO	NEW YORK		cytopathic effect	EC50	West Nile virus	>593 µg/mL
CC(=O)OC1C=COC=C2C[C@H]3C(=O)N4C5C(=COC=CC5OC(C)=O)C[C@H]4C(=O)N3C21	HeLa	TYPE A21			EC50	Coxsackie virus	30 µg/mL
Nc1nc(N)c2ncn(C[C@@H](CO)OCP(=O)(O)O)c2n1	HSB-2	GS		cytopathic effect	EC50	Human herpesvirus 6	26 µM
O=c1cnn([C@@H]2O[C@H](CO)[C@@H](O)[C@H]2O)c(=O)[nH]1	VERO	E101		cytopathic effect	EC50	West Nile virus	0.2 µg/mL
Nc1nc2c(ncn2CCC(CO)CO)c(=O)[nH]1	HEL	BVaraU-resistant		plaque count	EC50	Varicella zoster virus	16.4 µg/mL
C(#Cc1ccc(C#Cc2cccs2)s1)c1cccs1	3T3-L1			plaque count	EC50	Mouse cytomegalovirus	0.016 µg/mL
Clc1ccc(COC(Cn2ccnc2)c2ccc(Cl)cc2Cl)c(Cl)c1		LM 120		broth dilution	MFC100	Candida krusei	32 µg/mL
Nc1nc2c(ncn2[C@@H]2C[C@H](CO)[C@H]2CO)c(=O)[nH]1	HSB-2	GS		antigen / flow cytometry	EC50	Human herpesvirus 6	8.4 µM
CC(=O)N1CCN(c2ccc(OC[C@H]3CO[C@](Cn4ccnc4)(c4ccc(Cl)cc4Cl)O3)cc2)CC1		52 clinical isolates		broth dilution	MIC50	Candida parapsilosis	<0.031 µg/mL
O=C1N(Cc2ccc(CO)cc2)[C@H](Cc2ccccc2)[C@H](O)[C@@H](O)[C@@H](Cc2ccccc2)N1Cc1ccc(CO)cc1	PBMC	1 clinical isolate	0.18 µM	p24	inhibition	HIV-1	90%
O=c1cnn([C@@H]2O[C@H](CO)[C@@H](O)[C@H]2O)c(=O)[nH]1	MA-104	NEW YORK		virus yield	EC90	West Nile virus	0.3 µg/mL
C=CC#Cc1ccc(-c2ccccc2)s1	3T3-L1			plaque count	EC50	Mouse cytomegalovirus	0.5 µg/mL
CC[C@@]1(OC(=O)CN)C(=O)OCc2c1cc1n(c2=O)Cc2cc3cc(O)ccc3nc2-1		JHY6-1C			MIC	Saccharomyces cerevisiae	>100 µg/mL
CCCCCCCCCCCC1=C(O)C(C)(C)C(=O)C(C)(CC=C(C)C)C1=O		Vancomycin-resistant			MIC	Enterococcus faecalis	31 µg/mL
c1csc(-c2ccc(-c3cccs3)o2)c1	3T3-L1			plaque count	EC50	Mouse cytomegalovirus	0.5 µg/mL
Nc1ncnc2c1ncn2[C@H]1[C@H](O)[C@H](O)[C@]2(CO)O[C@H]12	VERO	TRVL 11573		cytopathic effect	EC50	Tacaribe virus	>1 µg/mL
CCO/N=C/c1ccc(OCCC2CCN(c3ccc(C)nn3)CC2)cc1	KB	FO 1-3774 (ICAM-1 receptor group 54)		neutral red	EC50	Rhinovirus	0.19 µM
O=c1[nH]cnc2c([C@@H]3O[C@H](CO)[C@@H](O)[C@H]3O)[nH]nc12			1 µg/mL		inhibition	Pneumocystis carinii	inactive
CC(=O)OC1C=COC=C2CC34SSC5(CC6=COC=CC(OC(C)=O)C6N5C3=O)C(=O)N4C21	HeLa	TYPE A21			EC50	Coxsackie virus	0.1 µg/mL
Nc1nc2c(ncn2COC(CO)CO)c(=O)[nH]1	HSB-2	GS		antigen / flow cytometry	EC50	Human herpesvirus 6	>25 µM
NC(=O)c1ncn([C@@H]2O[C@H](CO)[C@@H](O)[C@H]2O)n1		A/England/42/72			MIC	Influenza A virus	0.1 µg/mL
CCC(C)C(=O)C1=C(O)C(C)(C)C(=O)C(C)(C)C1=O		Vancomycin-resistant			MIC	Enterococcus faecalis	125 µg/mL
O=c1[nH]c(=O)n([C@@H]2O[C@H](CO)[C@@H](O)[C@H]2O)[nH]c1=S	VERO	NEW YORK		cytopathic effect / visual reading	EC50	West Nile virus	10 µg/mL
C=CCc1ccc(O)c(-c2ccc(O)c(CC=C)c2)c1		YL 328		broth dilution	MIC	Candida albicans	64 µg/mL
CCc1c2c(nc3ccc(O)cc13)-c1cc3c(c(=O)n1C2)COC(=O)[C@]3(O)CC		Mutant ΔERG6			MIC	Saccharomyces cerevisiae	>100 µg/mL
NC(=O)c1[nH]nc([C@@H]2O[C@H](CO)[C@@H](O)[C@H]2O)c1O	MA-104	NEW YORK		cytopathic effect / visual reading	EC50	West Nile virus	0.5 µg/mL
CCOC1c2cc(OC)c(OC)cc2-c2ccc3cc4c(cc3c2N1C)OCO4		Mutant ΔERG6 ΔTOP1			MIC	Saccharomyces cerevisiae	3.12 µg/mL
Nc1cc2c(ncn2[C@@H]2O[C@H](CO)[C@@H](O)[C@H]2O)c(=O)[nH]1	VERO	NEW YORK		cytopathic effect	EC50	West Nile virus	>30 µg/mL
CC(C)=CCC1(CC=C(C)C)C(=O)C(C(=O)C(C)C)=C(O)C(CC=C(C)C)(CC=C(C)C)C1=O		Vancomycin-resistant			MIC	Enterococcus faecalis	125 µg/mL
CO[C@@H]1[C@@H](OC(N)=O)[C@@H](O)[C@H](Oc2ccc3c(O)c(NC(=O)c4ccc(O)c(CC=C(C)C)c4)c(=O)oc3c2C)OC1(C)C	Akata-Bx1			PCR	EC50	Epstein-Barr virus	68.6 µM
Brc1csc(-c2ccsc2)c1	3T3-L1			plaque count	EC50	Mouse cytomegalovirus	>1 µg/mL
C#CC[C@@H](C(=O)N[C@H](/C=C/C(=O)OCC)C[C@@H]1CCNC1=O)n1cccc(NC(=O)c2cc(C)on2)c1=O	H1-HELA	Serotype 31		cytopathic effect / XTT	EC50	Rhinovirus	0.039 µM
CC(=O)OC1C=COC=C2C[C@@]34SC(=O)S[C@]5(CC6=COC=CC(OC(C)=O)C6N5C3=O)C(=O)N4C21	HeLa	TYPE A21			EC50	Coxsackie virus	0.5 µg/mL
CO[C@@H]1C[C@@H](C[C@H]2CC[C@H](C)[C@H]([C@@H](C)C(C)=O)O2)OC2(O[C@](C)([C@H]3CC[C@@](C)([C@@H]4O[C@@H]([C@H]5O[C@@](O)(CO)[C@@H](C)C[C@@H]5C)C[C@@H]4C)O3)C[C@H]2C)[C@@H]1C		RH	0.005 µg/mL	uracil uptake / radiometric	inhibition	Toxoplasma gondii	0%
c1coc(-c2ccc(-c3cccs3)s2)c1	3T3-L1			plaque count	EC50	Mouse cytomegalovirus	0.094 µg/mL
Nc1ccn([C@@H]2C=C(CO)[C@@H](O)[C@@H]2O)c(=O)n1	MA-104	NEW YORK		cytopathic effect / visual reading	EC50	West Nile virus	0.3 µg/mL
CC(=O)NC[C@H]1CN(c2ccc(N3CCOCC3)c(F)c2)C(=O)O1		Penicillin-resistant			MIC50	Streptococcus pneumoniae	0.5–1 µg/mL
Nc1ncnc2c1ncn2CCOCP(=O)(O)O					MIC	Cytomegalovirus	25 µg/mL
COc1cc2c[n+](C)c3c4cc5c(cc4ccc3c2cc1OC)OCO5		Mutant ΔERG6			MIC	Saccharomyces cerevisiae	1.56 µg/mL
Nc1ncnc2c1ncn2[C@@H]1C=C(CO)[C@@H](O)[C@H]1O		TYPE 3			MIC	Parainfluenza virus	0.2 µg/mL
Nc1nc2c(ncn2C[C@@H]2COP(=O)(O)CO2)c(=O)[nH]1	HSB-2	GS		antigen / flow cytometry	EC50	Human herpesvirus 6	>25 µM
Nc1ccn(C[C@@H](CO)OCP(=O)(O)O)c(=O)n1	HEL	PCV-resistant/A		plaque count	EC50	Varicella zoster virus	0.064 µg/mL
Nc1nccc2c1ncn2[C@@]12OCOC1[C@H](O)[C@@H](CO)O2	VERO	TRVL 11573		cytopathic effect	EC50	Tacaribe virus	2.3 µg/mL
O=C(C#CC=CC#CC(=O)c1cccs1)c1cccs1	3T3-L1			plaque count	EC50	Mouse cytomegalovirus	>1 µg/mL
Nc1nccc2c1ncn2[C@@H]1C=C(CO)[C@@H](O)[C@H]1O	VERO	NEW YORK		cytopathic effect	EC50	West Nile virus	>2.6 µg/mL
CC(=O)OC1C=COC=C2C[C@@]34SSSS[C@]5(CC6=COC=CC(OC(C)=O)C6N5C3=O)C(=O)N4C21	HeLa	TYPE A21			EC50	Coxsackie virus	0.2 µg/mL
NC(=O)c1csc([C@@H]2O[C@H](COP(=O)(O)CP(=O)(O)OC[C@H]3O[C@@H](n4cnc5c(N)ncnc54)[C@H](O)[C@@H]3O)[C@@H](O)[C@H]2O)n1	VERO	NEW YORK		cytopathic effect / visual reading	EC50	West Nile virus	100 µg/mL
Nc1ncnc2c1ccn2[C@@H]1O[C@H](CO)[C@@H](O)[C@H]1O	VERO	TRVL 11573		cytopathic effect	EC50	Tacaribe virus	0.03 µg/mL
CC1(C)C(=O)C(C(=O)CC2CCCCC2)=C(O)C(C)(C)C1=O		Vancomycin-resistant			MIC	Enterococcus faecalis	15 µg/mL
Nc1nc(N)c2ncn(CCOCP(=O)(O)O)c2n1					MIC	Epstein-Barr virus	0.05 µg/mL
CC[C@H]1OC(=O)[C@H](C)[C@@H](O[C@H]2C[C@@](C)(OC)[C@@H](O)[C@H](C)O2)[C@H](C)[C@@H](O[C@@H]2O[C@H](C)C[C@H](N(C)C)[C@H]2O)[C@](C)(OC)C[C@@H](C)C(=O)[C@H](C)[C@@H](O)[C@]1(C)O		X74		broth dilution	MIC	Mycobacterium abscessus	2 µg/mL
C#Cc1ccc(-c2ccccc2)s1	3T3-L1			plaque count	EC50	Mouse cytomegalovirus	>1 µg/mL
CC[C@@]1(O)C(=O)OCc2c1cc1n(c2=O)Cc2cc3c(N)c4c(cc3nc2-1)OCO4		JHY6-1C			MIC	Saccharomyces cerevisiae	>100 µg/mL
O=C(O)CP(=O)(O)O	HEL	ACV-resistant		plaque count	EC50	Varicella zoster virus	6.4 µg/mL
CCCN(CCC)c1c([N+](=O)[O-])cc(S(N)(=O)=O)cc1[N+](=O)[O-]		Oryzalin-resistant			EC50	Toxoplasma gondii	3 µM
c1coc(-c2ccc(-c3ccco3)s2)c1	3T3-L1			plaque count	EC50	Mouse cytomegalovirus	1 µg/mL
COc1cc2oc(=O)ccc2cc1CC(O)C(C)(C)O			250 µg/disc	agar diffusion	zone	Pseudomonas aeruginosa	8 mm
Nc1nc2c(ncn2C[C@H](CO)OCP(=O)(O)O)c(=O)[nH]1	HSB-2	GS		antigen / flow cytometry	EC50	Human herpesvirus 6	6.2 µM
Nc1nccc2c1ncn2[C@@H]1O[C@H](CO)[C@@H](O)[C@H]1O	VERO	TRVL 11573		cytopathic effect	EC50	Tacaribe virus	2.8 µg/mL
CC(C)C(=O)C1=C(O)C(C)(C)C(=O)C(C)(C)C1=O		Vancomycin-resistant			MIC	Enterococcus faecalis	125 µg/mL
CC[C@@]1(O)C(=O)OCc2c1cc1n(c2=O)Cc2c-1nc1cc3c(cc1c2CCl)OCO3		Mutant ΔERG6			MIC	Saccharomyces cerevisiae	3.12 µg/mL
C[C@@H](c1ncncc1F)[C@](O)(Cn1cncn1)c1ccc(F)cc1F		24 clinical isolates		broth dilution	MIC50	Candida guilliermondii	≤0.031 µg/mL
O=C(O)P(=O)(O)O	HEL	PFA-resistant/B		plaque count	EC50	Varicella zoster virus	82.3 µg/mL
Nc1nccc2c1ncn2[C@@H]1C[C@H](CO)[C@@H](O)[C@H]1O	VERO	TRVL 11573		cytopathic effect	EC50	Tacaribe virus	2.3 µg/mL

For reference, 4 entries again:

compound	cells	strain	tested at	method	read-out	species	value
Nc1nccc2c1ncn2[C@@H]1O[C@H](CO)[C@@H](O)[C@H]1O	VERO	TRVL 11573		cytopathic effect	EC50	Tacaribe virus	2.8 µg/mL
Nc1ccn(C[C@@H](CO)OCP(=O)(O)O)c(=O)n1	HEL	PCV-resistant/A		plaque count	EC50	Varicella zoster virus	0.064 µg/mL
Nc1nc2c(ncn2CCC(CO)CO)c(=O)[nH]1	HEL	BVaraU-resistant		plaque count	EC50	Varicella zoster virus	16.4 µg/mL
COc1cc2c[n+](C)c3c4cc5c(cc4ccc3c2cc1OC)OCO5		Mutant ΔERG6			MIC	Saccharomyces cerevisiae	1.56 µg/mL